Measured values from several laboratories, pooled; numbers as filed in NIAID ChemDB.

All rows: growth or infection tests; agent: HIV-1; cells: MT-2; endpoint: EC50

Rows are shuffled and stem from different studies. ECn is the concentration giving n% inhibition of infection, replication or growth. Blank or dashed fields: not listed here.

SMILES | strain | changes | read by | setting | value
CC(C)C1=C2[C@H]3CC[C@@H]4[C@@]5(C)CC[C@H](OC(=O)[C@H]6C[C@@H](C(=O)O)C6(C)C)C(C)(C)[C@@H]5CC[C@@]4(C)[C@]3(C)CC[C@@]2(CC(=O)NCC(C)(C)NC(=O)c2ccncc2)CC1=O | 92HT599 | - | p24 / ELISA | - | <1 µM
Cc1nc(C)c([C@H](OC(C)(C)C)C(=O)O)c(N2CCC(C)(C)CC2)c1-c1ccc2c(c1)CCN(Cc1ccc(OC(F)(F)F)cc1F)C2 | NL4-3 | - | luciferase | - | ≤0.1 µM
Cc1cccnc1N1C(=O)CSC1c1c(C)cccc1C | IIIB | - | MTT | - | ≥182 µM
Cc1ccc(C)c(C(C)S(=O)(=O)c2c(C)ccc[n+]2[O-])c1 | IIIB | - | syncytia | - | 0.2 µg/mL
CC(C)C1=C2[C@H]3CC[C@@H]4[C@@]5(C)CC[C@H](OC(=O)[C@H]6C[C@@H](C(=O)O)C6(C)C)C(C)(C)[C@@H]5CC[C@@]4(C)[C@]3(C)CC[C@@]2([C@@H](O)CNC(=O)C2CCCCC2)CC1=O | 92HT599 | - | p24 / ELISA | - | <1 µM
COc1ccc2nc(-c3cccc(N)c3)ccc2c1 | NL4-3 | Delta-VSV-Luc | luciferase | pseudotyped | 157 µM
Cc1ccc(C)c(C(Cl)S(=O)(=O)c2cc(C)cc[n+]2[O-])c1 | IIIB | - | syncytia | - | 0.64 µg/mL
CC(C)C1=C2[C@H]3CC[C@@H]4[C@@]5(C)CC[C@H](OC(=O)[C@H]6C[C@@H](C(=O)O)C6(C)C)C(C)(C)[C@@H]5CC[C@@]4(C)[C@]3(C)CC[C@@]2(CC(=O)NC2(c3ccc(Cl)cc3)CNC2)CC1=O | 92HT599 | - | p24 / ELISA | - | <1 µM
Cc1ccc(C(=O)Nc2cccc(C(=O)N/N=C/c3ccc(Br)cc3)c2)cc1 | IIIB | - | cytopathic effect / XTT | - | >100 µg/mL
Cc1cc(C)c2c(c1)N[C@H](c1cccc([N+](=O)[O-])c1)C[C@@H]2N1CCCC1=O | NL4-3 | - | MTT | - | >50 µM
Cc1noc(C)c1C(=O)NC(C)(C)C(=O)NC[C@H](O)[C@@]12CC[C@]3(C)[C@H](CC[C@@H]4[C@@]5(C)CC[C@H](OC(=O)[C@H]6C[C@@H](C(=O)O)C6(C)C)C(C)(C)[C@@H]5CC[C@]43C)C1=C(C(C)C)C(=O)C2 | 92HT599 | - | p24 / ELISA | - | <1 µM
COc1cnc(-n2cnc(C)n2)c2[nH]cc(C(=O)C(=O)N3CCN(C(=O)c4ccccc4)CC3)c12 | LAI | - | RT activity | - | 0.0007 µM
NC(N)=NCCC[C@H](N)C(=O)NC[C@@H]1OC(O[C@H]2[C@@H](O)[C@H](O[C@@H]3[C@@H](O)[C@H](NC(=O)[C@@H](N)CCCN=C(N)N)C[C@H](NC(=O)[C@@H](N)CCCN=C(N)N)[C@H]3O[C@H]3O[C@H](CNC(=O)[C@@H](N)CCCN=C(N)N)[C@@H](O)[C@H](O)[C@H]3NC(=O)[C@@H](N)CCCN=C(N)N)O[C@@H]2CO)[C@H](NC(=O)[C@@H](N)CCCN=C(N)N)[C@@H](O)[C@@H]1O | 2D | - | p24 / RT activity | - | 2.3 µM
COc1cc2c(c(OC)c1)[C@@H](N1CCCC1=O)C[C@@H](c1cccc(N)c1)N2 | NL4-3 | - | MTT | - | 116 µM
CC(=O)N[C@@H](Cc1ccccc1)C(=O)N[C@H](C(=O)N[C@@H](CC(C)C)[C@@H](O)CC(=O)N[C@@H](CC(C)C)C(=O)N[C@@H](Cc1ccccc1)C(N)=O)C(C)C | - | - | - | - | 12.6 µM
Cc1nc(C)c([C@H](OC(C)(C)C)C(=O)O)c(N2CCC(C)(C)CC2)c1-c1ccc2c(c1)CCN(Cc1ccc(F)c(CC(F)(F)F)c1)C2 | NL4-3 | - | luciferase | - | ≤0.1 µM
Cc1cc(C)c2ccc(-c3cccc([N+](=O)[O-])c3)nc2c1 | NL4-3 | - | MTT | - | >50 µM
COc1ccc(OC)c(C2SCC(=O)N2CCc2ccccc2)c1 | IIIB | - | MTT | - | 303 µM
COc1ccc(C)cc1CS(=O)(=O)c1cccc[n+]1[O-] | IIIB | - | syncytia | - | 12 µg/mL
CC(C)C1=C2[C@H]3CC[C@@H]4[C@@]5(C)CC[C@H](OC(=O)[C@H]6C[C@@H](C(=O)O)C6(C)C)C(C)(C)[C@@H]5CC[C@@]4(C)[C@]3(C)CC[C@@]2(CCNC(=O)C2CCC2)CC1=O | 92HT599 | - | p24 / ELISA | - | <1 µM
Cc1cn([C@H]2CC[C@@H](COC(=O)c3ccccc3)O2)c(=O)[nH]c1=O | - | - | cytopathic effect | - | <250 µM
COc1ccc2c(c1)[C@@H](N1CCCC1=O)C[C@@H](c1cccc([N+](=O)[O-])c1)N2 | NL4-3 | - | MTT | - | >50 µM
Cc1ccc(C(C)(C)C)cc1CN1CCc2cc(-c3c(C)nc(C)c([C@H](OC(C)(C)C)C(=O)O)c3N3CCC(C)(C)CC3)ccc2C1 | NL4-3 | - | luciferase | - | ≤0.1 µM
Cc1ccc2c(c1)[C@@H](N1CCCC1=O)C[C@@H](c1cccc([N+](=O)[O-])c1)N2 | NL4-3-Luc | - | luciferase | - | >142 µM
CC(C)C1=C2[C@H]3CC[C@@H]4[C@@]5(C)CC[C@H](OC(=O)[C@H]6C[C@@H](C(=O)O)C6(C)C)C(C)(C)[C@@H]5CC[C@@]4(C)[C@]3(C)CC[C@@]2([C@@H](O)CNC(=O)c2ncc[nH]2)CC1=O | 92HT599 | - | p24 / ELISA | - | <1 µM
CC(C)CN(C[C@@H](O)[C@H](Cc1cc(F)cc(F)c1)NC(=O)O[C@H]1C2CO[C@H]3OCC1C3C2)S(=O)(=O)c1ccc2nc(NC3CC3)sc2c1 | LAI | - | p24 / luminescence | - | 0.000017 µM
Cc1cccc(CS(=O)(=O)c2cccc[n+]2[O-])c1 | IIIB | - | syncytia | - | 16 µg/mL
Cc1ccc(C(C)N2CCc3cc(-c4c(C)nc(C)c([C@H](OC(C)(C)C)C(=O)O)c4N4CCC(C)(C)CC4)ccc3C2)cc1C(F)(F)F | NL4-3 | - | luciferase | - | ≤0.1 µM
Cc1cccc(N2C(=O)CSC2c2ccccn2)n1 | IIIB | - | MTT | - | 0.078 µM
COc1cc(C)c(CN2CCc3cc(-c4c(C)nc(C)c([C@H](OC(C)(C)C)C(=O)O)c4N4CCC(C)(C)CC4)ccc3C2)c(F)c1 | NL4-3 | - | luciferase | - | ≤0.1 µM
CC(C)C1=C2[C@H]3CC[C@@H]4[C@@]5(C)CC[C@H](OC(=O)[C@H]6C[C@@H](C(=O)O)C6(C)C)C(C)(C)[C@@H]5CC[C@@]4(C)[C@]3(C)CC[C@@]2([C@@H](O)CNC(=O)C(C)(C)N)CC1=O | 92HT599 | - | p24 / ELISA | - | <1 µM
Cc1nc(C)c([C@H](OC(C)(C)C)C(=O)O)c(N2CCC(C)(C)CC2)c1-c1ccc2c(c1)CCN(Cc1ccc(F)c(F)c1)C2 | NL4-3 | - | luciferase | - | 0.006 µM
Nc1nc(NC2CC2)c2ncn([C@H]3C=C[C@@H](CO)C3)c2n1 | HXB2-D WT | - | cytopathic effect / XTT | - | 0.4 µM

Repeating the first 4 entries:

| SMILES | strain | changes | read by | setting | value |
|---|---|---|---|---|---|
| CC(C)C1=C2[C@H]3CC[C@@H]4[C@@]5(C)CC[C@H](OC(=O)[C@H]6C[C@@H](C(=O)O)C6(C)C)C(C)(C)[C@@H]5CC[C@@]4(C)[C@]3(C)CC[C@@]2(CC(=O)NCC(C)(C)NC(=O)c2ccncc2)CC1=O | 92HT599 | - | p24 / ELISA | - | <1 µM |
| Cc1nc(C)c([C@H](OC(C)(C)C)C(=O)O)c(N2CCC(C)(C)CC2)c1-c1ccc2c(c1)CCN(Cc1ccc(OC(F)(F)F)cc1F)C2 | NL4-3 | - | luciferase | - | ≤0.1 µM |
| Cc1cccnc1N1C(=O)CSC1c1c(C)cccc1C | IIIB | - | MTT | - | ≥182 µM |
| Cc1ccc(C)c(C(C)S(=O)(=O)c2c(C)ccc[n+]2[O-])c1 | IIIB | - | syncytia | - | 0.2 µg/mL |